Measured values from several laboratories, pooled; numbers as filed in NIAID ChemDB.

Shared fields: whole-cell or culture tests; species: Mycobacterium smegmatis

A number after MIC or MFC names an inhibition level or a share of isolates. Conditions beyond the fields shown may differ between rows. Blank or dashed fields: not listed here. Zones are inhibition diameters on agar.

structure,strain or isolate,method,measure,tested at,value
CC1CN(c2cc3c(cc2F)c(=O)c(C(=O)O)cn3C2CC2)CCN1,KD1998 (GYRA D95N),,MIC99,,3.3 µg/mL
Cc1c(N2CC[C@@H]([C@H](N)CO)C2)c(F)cn2c(=O)c(C(=O)O)cc(C3CC3)c12,ATCC114,,MIC,,0.1 µg/mL
CC1CN(c2c(F)cc3c(=O)c(C(=O)O)cn(C4CC4)c3c2F)CC(C)N1,KD1990 (GYRA D95A),,MIC99,,0.43 µg/mL
Cc1c(N2CCCC(N)C2)c(F)cn2c(=O)c(C(=O)O)cc(C3CC3)c12,ATCC114,,MIC,,0.2 µg/mL
Cc1nn(-c2ccccc2)c2c1C(c1cn(-c3ccccc3)nc1-c1ccc(Cl)cc1)C1=C(NC(C)(c3cc(O)cc(O)c3)NC1=O)O2,NCIM 5138,agar diffusion / agar,zone,0.5 mg/mL,1.9 mm
COC(=O)Cc1ccc2[nH]c3ccc(OC)cc3c2c1,,resazurin / visual reading / absorbance,MIC99,,>500 µg/mL
CCC1CN(c2c(F)cc3c(=O)c(C(=O)O)cn(C4CC4)c3c2OC)CCN1,KD1995 (GYRA D95H),,MIC99,,0.54 µg/mL
Cc1c(N2CC[C@H](NC(=O)[C@H](C)NC(=O)[C@H](C)N)C2)c(F)cn2c(=O)c(C(=O)O)cc(C3CC3)c12.Cl,ATCC114,,MIC,,1.56 µg/mL
CC(C(=O)O)c1ccc2c(c1)[nH]c1ccc(N3CCOCC3)cc12,,resazurin / visual reading / absorbance,MIC99,,>250 µg/mL
NC1CCN(c2nc3c(cc2F)c(=O)c(C(=O)O)cn3C2CC2)C1,ATCC 19420,,MIC,,0.13 µg/mL
COc1ccc(-c2nn(-c3ccccc3)cc2C2C3=C(NC(C)(c4cc(O)c(I)cc4Cl)NC3=O)Oc3c2c(C)nn3-c2ccccc2)cc1,NCIM 5138,agar diffusion / agar,zone,0.5 mg/mL,10.8 mm
O=C(O)C(Cc1ccc(I)cc1)Nc1nc(-c2ccc(Cl)c(Cl)c2)cs1,ATCC 700084,broth dilution,MIC99,,12.5 µg/mL
O=C(O)c1cn(C2CC2)c2c(C(F)(F)F)c(N3CCNCC3)c(F)cc2c1=O,ATCC 19420,,MIC,,0.5 µg/mL
COC(=O)Cc1ccc2[nH]c3ccc(C)cc3c2c1,,resazurin / visual reading / absorbance,MIC99,,>500 µg/mL
Cc1c(N2CC(N)C(O)C2)c(F)cn2c(=O)c(C(=O)O)cc(C3CC3)c12.Cl,ATCC114,,MIC,,0.2 µg/mL
C[C@H]1COC2(CCN(c3nc(=O)c4cc(C(F)(F)F)cc(C(=O)O)c4s3)CC2)O1,MN84,resazurin,MIC99,,>100 µg/mL
CCOc1c(N2CCNCC2)c(F)cc2c(=O)c(C(=O)O)cn(C3CC3)c12,ATCC 19420,,MIC,,0.25 µg/mL
COc1nc2ccc(Br)cc2cc1[C@@H](c1ccccc1)[C@@](O)(CCN(C)C)c1cccc2ccccc12,delta-cyt-bc1,broth dilution,MIC80,,0.06 µM
Cc1nn(-c2ccccc2)c2c1C(c1cn(-c3ccccc3)nc1-c1ccc(F)cc1)C1=C(NC(C)(c3cc(O)c(I)cc3Cl)NC1=O)O2,NCIM 5138,agar diffusion / agar,zone,1 mg/mL,12 mm
O=C(O)Cc1ccc2[nH]c3cc(Cl)ccc3c2c1,,resazurin / visual reading / absorbance,MIC99,,>500 µg/mL
CCN1CCN(c2c(F)cc3c(=O)c(C(=O)O)cn(C4CC4)c3c2OC)CC1,KD2012 (GYRA G89A),,MIC99,,0.37 µg/mL
Cc1nn(-c2ccccc2)c2c1C(c1cn(-c3ccccc3)nc1-c1ccc(F)cc1)C1=C(NC(C)(c3cc(O)ccc3Cl)NC1=O)O2,NCIM 5138,agar diffusion / agar,zone,0.5 mg/mL,2.2 mm
CNCC1CCN(c2nc3c(cc2F)c(=O)c(C(=O)O)cn3C2CC2)C1,ATCC 19420,,MIC,,0.25 µg/mL
COc1c(N2CCNC(C)C2)c(F)cc2c(=O)c(C(=O)O)cn(C3CC3)c12,KD2003 (GYRA D95G),,MIC99,,0.49 µg/mL
O=C(O)Cc1ccc2[nH]c3ccc(F)cc3c2c1,,resazurin / visual reading / absorbance,MIC99,,>500 µg/mL
CC[n+]1c(-c2ccccc2)c2cc(N)ccc2c2ccc(N)cc21,PMN1 LFR (CCCP),,MIC,,8 µg/mL
NCC[C@H](O)C(=O)N[C@@H]1C[C@H](N)[C@@H](O[C@H]2O[C@H](CN)[C@@H](O)[C@H](O)[C@H]2O)[C@H](O)[C@H]1O[C@H]1O[C@H](CO)[C@@H](O)[C@H](N)[C@H]1O,A28314,,MIC,,0.25 µg/mL
CN(C)[C@@H]1C(=O)C(C(N)=O)=C(O)[C@@]2(O)C(=O)C3=C(O)c4c(O)cccc4[C@@](C)(O)[C@H]3C[C@@H]12,MC^2 552 (ciprofloxacin-resistant),,MIC,,2 µg/mL
CC(C)N1CCN(c2c(F)cc3c(=O)c(C(=O)O)cn(C4CC4)c3c2F)CC1,KD1163 (GRYA+),,MIC99,,0.31 µg/mL
Cc1ccc2[nH]c3ccc(CC(=O)O)cc3c2c1,,resazurin / visual reading / absorbance,MIC99,,>500 µg/mL
CC1CN(c2c(F)cc3c(=O)c(C(=O)O)cn(C4CC4)c3c2Cl)CCN1,ATCC 19420,,MIC,,0.13 µg/mL
O=C(O)Cc1ccc2[nH]c3ccc(Cl)cc3c2c1,,resazurin / visual reading / absorbance,MIC99,,500 µg/mL
O=C(O)c1cc(C(F)(F)F)cc2c(=O)nc(N3CCN(CC4CCCCC4)CC3)sc12,mc2155,resazurin,MIC99,,0.0007 µg/mL
Cc1c(N2CCN(C)CC2)c(F)cn2c(=O)c(C(=O)O)cc(C3CC3)c12,ATCC114,,MIC,,1.56 µg/mL
O=C(O)Cc1ccc2[nH]c3ccc(C(F)(F)F)cc3c2c1,,resazurin / visual reading / absorbance,MIC99,,>500 µg/mL